Results of unrelated studies side by side (data: NIAID ChemDB).

Common to all: growth or infection tests

Fold resistance: result on the changed form divided by that on wild type.

smiles,cells,endpoint,read by,tested at,conditions,organism,strain,mutations,result
CCOC(=O)Nc1cc2c(c(N)n1)N=C(c1ccccc1)CCN2,RK-13,inhibition,-,1 µg/mL,-,Encephalitozoon intestinalis,-,-,83.1%
O=C1C=CN([C@@H]2O[C@H](CO)[C@@H](O)[C@H]2O)C(=O)C1,VERO,EC50,cytopathic effect / visual reading,-,-,West Nile virus,Uganda,-,320 µg/mL
Nc1nccc2c1ncn2[C@@H]1O[C@H](CO)[C@@H](O)[C@H]1O,HeLa,EC50,cytopathic effect,-,-,Vesicular stomatitis virus,-,-,20 µg/mL
C[C@H](Cc1ccc(O)c(O)c1)[C@@H](C)Cc1ccc(O)c(O)c1,-,MIC50,broth dilution,-,-,Candida albicans,CCC 126-2000,-,125 µg/mL
NC(=O)c1ncn([C@@H]2O[C@H](CO)[C@@H](O)[C@H]2O)n1,HEP-2,inhibition,plaque count,4 µg/mL,-,Respiratory syncytial virus,46,-,57%
C[C@H]1CN(c2c(F)cc3c(=O)c(C(=O)O)cn(C4CC4)c3c2OC(F)F)CCN1,-,MIC50,-,-,-,Staphylococcus aureus,10 strains (oxacillin-resistant),-,0.5 µg/mL
COc1ccc(C)cc1NCc1cnc2nc(N)nc(N)c2c1C,RK-13,inhibition,-,1 µg/mL,-,Encephalitozoon intestinalis,-,-,68.7%
Nc1ncnc2c1ncn2[C@@H]1O[C@H](CO)[C@@H](O)[C@@H]1O,HEL,EC50,cytopathic effect,-,-,Herpes simplex virus 1,KOS,-,12.1 µg/mL
OC[C@H]1O[C@@H](n2cnc3c(NC4CCCCCC4)cc(Cl)nc32)C[C@@H]1O,Sheep chondrocytes G81092,EC50,cytopathic effect,-,-,Maedi-visna virus,KV1772,-,1.41 µM
C#CC[C@@H](C(=O)N[C@H](/C=C/C(=O)OCC)C[C@@H]1CCNC1=O)n1cccc(NC(=O)c2cc(C)on2)c1=O,H1-HELA,inhibition,cytopathic effect / XTT,0.094 µM,-,Rhinovirus,Serotype 45,-,90%
OC[C@H]1O[C@@H](n2cnc3c(NC4CCCCCC4)ncnc32)C[C@@H]1O,Sheep chondrocytes G81092,EC50,cytopathic effect,-,-,Maedi-visna virus,KV1772,-,1.5 µM
O=c1[nH]cc(F)c(=O)[nH]1,MRC-5 fibroblasts,inhibition,cytopathic effect,30 µg/mL,-,Encephalitozoon cuniculi,-,-,100%
NC(=O)c1ncn([C@@H]2O[C@H](CO)[C@@H](O)[C@H]2O)n1,VERO 76,EC50,cytopathic effect,-,-,Pichinde virus,-,-,3.2–10 µg/mL
COc1ccc2c(O[C@@H]3C[C@H]4C(=O)N[C@]5(C(=O)NS(=O)(=O)C6CC6)C[C@H]5/C=C\CCCCN(C)C(=O)[C@@H]4C3)cc(-c3nc(C(C)C)cs3)nc2c1C,Huh7.5,EC50,antigen,-,-,Hepatitis C virus,S52,-,1.988 µM
OC[C@H]1O[C@@H](n2cnc3c(NC4CCCCCC4)ncnc32)[C@H](O)[C@@H]1O,MDBK,EC50,cytopathic effect,-,-,Bovine herpesvirus 1,IRB-LA,-,>50 µM
Nc1nc(N)c2ncn(CCOCP(=O)(O)O)c2n1,HEL,EC50,cytopathic effect,-,-,Herpes simplex virus 1,KOS HPMPA-resistant,-,2.9 µg/mL
CCOc1cc(Cc2cnc(N)nc2N)cc(OCC)c1-n1cccc1,-,MIC,-,-,-,Mycobacterium ulcerans,Isolate 8756,-,1 µg/mL
O=c1cnn([C@@H]2O[C@H](CO)[C@@H](O)[C@H]2O)c(=O)[nH]1,VERO,EC50,cytopathic effect / visual reading,-,-,West Nile virus,NEW YORK,-,1.5 µg/mL
N[C@@H](C(=O)N[C@@H]1C(=O)N2C(C(=O)O)=C(Cl)CS[C@H]12)c1ccccc1,-,MIC50,-,-,-,Haemophilus influenzae,44 strains,-,1 µg/mL
Nc1nc2c(ncn2COC(COCP(=O)(O)O)COCP(=O)(O)O)c(=O)[nH]1,C1271,EC50,plaque count,-,-,Mouse cytomegalovirus,WILD TYPE,-,0.6 µM
CC[C@H]1C[C@]1(NC(=O)[C@@H]1C[C@@H]2CN1C(=O)[C@H](C(C)(C)C)NC(=O)OCC(C)(C)CCCCc1cccc3c1CN(C3)C(=O)O2)C(=O)NS(=O)(=O)C1CC1,Huh7.5,EC50,antigen,-,-,Hepatitis C virus,SA13,-,0.022 µM
NC(=O)c1ncn([C@@H]2O[C@H](CO)[C@@H](O)[C@H]2O)n1,CV-1,EC50,neutral red,-,-,Measles virus,X-1108,-,20 µg/mL
NC(=O)c1csc([C@@H]2O[C@H](CO)[C@@H](O)[C@H]2O)n1,VERO,EC50,cytopathic effect,-,-,West Nile virus,NEW YORK,-,307 µg/mL
COc1ccc(OC)c(Cc2cnc3nc(N)nc(N)c3c2C)c1,MRC-5 fibroblasts,inhibition,cytopathic effect,1 µg/mL,-,Encephalitozoon cuniculi,-,-,0%
COc1c(C)c2c(c(O)c1C/C=C(\C)CCC(=O)O)C(=O)OC2,VERO,EC50,cytopathic effect,-,-,West Nile virus,NEW YORK,-,1.4 µg/mL
OC[C@H]1O[C@@H](n2cnc3c(NC4CCCC4)cc(Cl)nc32)[C@H](O)[C@@H]1O,Sheep chondrocytes G81092,EC50,cytopathic effect,-,-,Maedi-visna virus,KV1772,-,0.5 µM
Nc1nc(N)c2ncn(CCOCP(=O)(O)O)c2n1,C1271,EC50,plaque count,-,-,Mouse cytomegalovirus,Foscarnet-resistant,-,0.9 µM
OC(Cn1cncn1)(Cn1cncn1)c1ccc(F)cc1F,-,MIC,broth dilution,-,-,Candida albicans,YL 371,-,>512 µg/mL
CN1CCC2(C1)C1CC3CC(C1)CC2C3,-,MIC,-,-,-,Influenza A virus,A/England/42/74,-,0.1 µg/mL
CCO/N=C/c1ccc(OCCC2CCN(c3ccc(C)nn3)CC2)cc1,KB,EC50,neutral red,-,-,Rhinovirus,FEB (ICAM-1 receptor group 3),-,0.026 µM
Cc1cc(=O)c2c(O)c3c(O)cc(O)c4c5c(O)cc(O)c6c(O)c7c(=O)cc(C)c8c1c2c(c34)c(c65)c78,VERO,EC50,cytopathic effect,-,-,West Nile virus,NEW YORK,-,>50 µg/mL
NC(=O)c1c[se]c([C@@H]2O[C@H](CO)[C@@H](O)[C@H]2O)n1,VERO 76,EC50,antigen,-,-,Pichinde virus,-,-,<1 µg/mL
C[C@@H]1CN(c2c(F)c(N)c3c(=O)c(C(=O)O)cn(C4CC4)c3c2F)C[C@H](C)N1,-,MIC,-,-,-,Streptococcus pneumoniae,1C1 (PARC mutation SER79TYR),-,0.5 µg/mL
CCCN(CCC)c1c([N+](=O)[O-])cc(C(F)(F)F)cc1[N+](=O)[O-],-,EC50,-,-,-,Toxoplasma gondii,RH,-,0.5 µM
Nc1nc(=O)n2ccn([C@@H]3O[C@H](CO)[C@@H](O)[C@H]3O)c2n1,VERO,EC50,cytopathic effect,-,-,West Nile virus,New York isolates,-,9.5 µg/mL
CC(C)(CO)C(=O)SCCOP(=O)(NCc1ccccc1)OC[C@H]1O[C@@H](n2cnc3c(=O)[nH]c(N)nc32)[C@](C)(O)[C@@H]1O,Replicon cells,fold resistance,replicon,-,-,Hepatitis C virus,GT1a,Q30E,1.11
O=c1c(O)c(-c2ccc(O)c(O)c2)oc2cc(O)cc(O)c12,-,MIC50,broth dilution,-,-,Candida tropicalis,Clinical isolate 2,-,>128 µg/mL
OC[C@@H]1CC[C@H](n2cnc3c(NC4CC4)nc(Cl)nc32)O1,Sheep chondrocytes G81092,EC50,cytopathic effect,-,-,Maedi-visna virus,KV1772,-,0.41 µM
N=C(N)c1ncn([C@@H]2O[C@H](CO)[C@@H](O)[C@H]2O)n1,VERO,EC50,cytopathic effect,-,-,West Nile virus,Uganda,-,304 µg/mL
Nc1ncnc2c1ncn2C[C@H](O)CO,P3HR-1,inhibition,-,0.1 µM,-,Epstein-Barr virus,-,-,5%
COC(=O)Nc1cc(N)c2c(c1)NC(=O)C(c1ccccc1)N2,RK-13,inhibition,-,1 µg/mL,-,Encephalitozoon intestinalis,-,-,74.1%
OC[C@H]1O[C@@H](n2cnc3c(NC4CCCC4)nc(Cl)cc32)[C@H](O)[C@@H]1O,MDBK,EC50,cytopathic effect,-,-,Bovine herpesvirus 1,IRB-LA,-,>50 µM
O=c1[nH]c(=O)n([C@@H]2O[C@H](CO)[C@@H](O)[C@H]2O)cc1F,VERO,EC50,cytopathic effect / visual reading,-,-,West Nile virus,NEW YORK,-,>0.32 µg/mL
Nc1ccn(C[C@@H](CO)OCP(=O)(O)O)c(=O)n1,HEL,EC50,cytopathic effect,-,-,Herpes simplex virus 1,KOS GCV-resistant,-,0.32 µg/mL
Nc1nccc2c1ncn2[C@@H]1C=C(CO)[C@@H](O)[C@H]1O,VERO,EC50,cytopathic effect / visual reading,-,-,West Nile virus,NEW YORK,-,>100 µg/mL
CC(=O)Oc1ccccc1C(=O)Nc1ncc([N+](=O)[O-])s1,RK-13,inhibition,-,0.001 µg/mL,-,Encephalitozoon intestinalis,-,-,19.4%
CN1CCN(c2c(F)cc3c(=O)c(C(=O)O)cn4c3c2SCC4CF)CC1,-,MIC90,-,-,-,Haemophilus influenzae,44 strains,-,0.12 µg/mL
Cc1cn([C@@H]2O[C@H](CO)[C@@H](O)[C@@H]2O)c(=O)[nH]c1=O,HEL,EC50,cytopathic effect,-,-,Herpes simplex virus 1,KOS ACV-resistant,-,25 µg/mL
Nc1ncnc2c1ncn2[C@H]1C[C@H](F)[C@@H](CO)O1,VERO,EC50,plaque count,-,-,Punta Toro virus,-,-,>32 µM
C[C@@H](c1nc(-c2ccc(C#N)cc2)cs1)[C@](O)(Cn1cnnc1)c1ccc(F)cc1F,-,MIC,-,-,-,Candida albicans,AD,-,0.25 µg/mL
CNC1CCc2cc(OC)c(OC)c(OC)c2-c2ccc(OC)c(=O)cc21,RK-13,inhibition,-,0.01 µg/mL,-,Encephalitozoon intestinalis,-,-,34.4%
Nc1ncnc2c1ncn2C[C@@H](CO)OCP(=O)(O)O,C1271,EC50,plaque count,-,-,Mouse cytomegalovirus,HPMPC-resistant,-,11 µM
Nc1ccnc2c1ncn2[C@@H]1O[C@H](CO)C[C@H]1O,Sheep chondrocytes G81092,EC50,cytopathic effect,-,-,Maedi-visna virus,KV1772,-,4.1 µM
C#C[C@]1(CO)O[C@@H](n2cnc3c(N)nc(F)nc32)C[C@@H]1O,PBMC,EC50,p27 / ELISA,-,-,SIV,-,-,0.00004 µM
CN1CCN(c2c(F)cc3c(=O)c(C(=O)O)cn4c3c2SCC4)CC1,-,MIC50,-,-,-,Staphylococcus aureus,30 strains,-,2 µg/mL
Nc1nc2c(ncn2COCCO)c(=O)[nH]1,C1271,EC50,plaque count,-,-,Mouse cytomegalovirus,Foscarnet-resistant,-,20.3 µM
COc1cc(Cc2cnc(N)nc2N)cc(OC)c1OCCCNc1ccc(S(=O)(=O)c2ccc(N)cc2)cc1,-,MIC,-,-,-,Mycobacterium ulcerans,ATCC 19423,-,2 µg/mL
O=c1[nH]c(=O)n([C@H]2C[C@H](O)[C@@H](CO)O2)cc1/C=C/Br,P3HR-1,inhibition,-,0.01 µM,-,Epstein-Barr virus,-,-,4%
CO[C@@H]1C[C@@H](C[C@H]2CC[C@H](C)[C@H]([C@@H](C)C(=O)O)O2)O[C@]2(O[C@](C)([C@H]3CC[C@@](C)([C@@H]4O[C@@H]([C@H]5O[C@@](O)(CO)[C@H](C)C[C@@H]5C)C[C@@H]4C)O3)C[C@H]2C)[C@@H]1C,-,inhibition,uracil uptake / radiometric,0.005 µg/mL,-,Toxoplasma gondii,RH,-,0%
CC[C@@]1(O)C(=O)OCc2c1cc1n(c2=O)Cc2cc3ccccc3nc2-1,-,inhibition,-,10 µg/mL,7 d,Pneumocystis carinii,-,-,0%
Nc1ncnc2c1ncn2Cc1c(F)cccc1Cl,MRC-5 fibroblasts,inhibition,cytopathic effect,5 µg/mL,-,Encephalitozoon cuniculi,-,-,0%
Nc1ccn([C@H]2CC[C@@H](CO)O2)c(=O)n1,U-937,EC50,virus yield,-,-,HIV-2,LAV-2,-,<0.001 µM
CO[C@H]1[C@@H](OC(=O)/C=C/C=C/C=C/C=C/C(=O)O)CC[C@@]2(CO2)[C@@H]1[C@@]1(C)O[C@@H]1CC=C(C)C,MRC-5 fibroblasts,inhibition,cytopathic effect,5 µg/mL,-,Encephalitozoon cuniculi,-,-,100%
Nc1nc(=O)n([C@@H]2O[C@H](CO)[C@@H](O)[C@@H]2F)cc1I,HEL,EC50,cytopathic effect,-,-,Herpes simplex virus 1,KOS S2242-resistant,-,0.007 µg/mL
Nc1ccc(S(=O)(=O)Nc2ncccn2)cc1,MRC-5 fibroblasts,inhibition,cytopathic effect,10 µg/mL,-,Encephalitozoon cuniculi,-,-,0%
CCCCCCCCCCCCCCCCCCCCCCOCC(C)(COCCCCCCCCCCCCCCCCCCCCCC)CO[C@]1(C(=O)O)C[C@H](OS(=O)(=O)O)[C@@H](NC(C)=O)[C@H]([C@H](OS(=O)(=O)O)[C@@H](COS(=O)(=O)O)OS(=O)(=O)O)O1,HEP-2,EC50,plaque count,-,-,Respiratory syncytial virus,SM61-48,-,0.13 µM

ECn: concentration that inhibits the pathogen or its effect by n%. MIC50, MIC90 and the like: level of inhibition, or share of isolates inhibited. Inhibition is in % at the dose shown (toxicity tests: loss of growth or viability). Blank or dashed fields: not listed here. a–b is a range or a potency band. Neighbouring rows are from separate reports.